This assay in a line: qHTS for Inhibitors of the Functional Ribonucleoprotein Complex (vRNP) of Lassa (LASV) Arenavirus: LASV Confirmatory Screen - GLuc reporter signal. The conditions noted are these: LASV minigenome vRNP, Gaussia luciferase reporter. Background: qHTS replaces the single test concentration by a dilution series.

SMILES strings stand for the structures. Only a part is listed here, and it is no random draw. Results filed as inconclusive are left out. Active and inactive are the calls of the source. Calls come from the whole dose curve.

Take `Cc1cc([N+](=O)[O-])cc([N+](=O)[O-])c1O`: the Potency was active: 49.8 µM.
